Compound potency records, mixed from different reports. Data source: NIAID ChemDB in PubChem.

All rows: tests in culture; species: HIV-1; measure: fold resistance

Fold resistance has wild type as its base. An empty or dashed field is not shown. Rows are shuffled and stem from different studies.

compound	strain	mutations	cell line	read by	result
CCC(=O)c1ccc(F)c([C@@H]2C[C@@H]2NC(=O)Nc2ccc(C#N)cn2)c1O	LAI	NNRTI-resistant (RT K101E/G190A)	TZM-bl	β-galactosidase / luminescence	2.2
Cc1cc(OCCCS(N)(=O)=O)ccc1NC(=O)COc1ccc(Cl)cc1C(=O)c1cc(F)cc(C(F)(F)F)c1	HXB2	RT-K103N L100I	HeLa + HELA CD4+	β-galactosidase	~1
CCSCC1=C(C(=O)Nc2ccc(Cl)c(C(=O)OC(C)C)c2)SCCO1	Nevirapine-resistant (RT V106A)	RT-V106A	CEM	syncytia	2.83
Cc1cc(C#N)cc(C(=O)c2cc(Cl)ccc2OCC(=O)Nc2cnc(S(N)(=O)=O)cc2C)c1	HXB2	RT-V108I	HeLa + HELA CD4+	β-galactosidase	~1
CC(C)=CCOc1cc(NC(=S)c2ccsc2C)ccc1Cl	3TC-RS (RT-M184I)	RT-M184I	CEM + CEM-SS	cytopathic effect / XTT	1
CCC1=C(C(=O)Nc2ccc(Cl)c(C(=O)OCC(C)C)c2)SCCO1	Nevirapine-resistant (RT V106A)	RT-V106A	CEM	syncytia	60
Cc1occc1C(=S)Nc1ccc(Cl)c(C(=O)OCC2CC2)c1	NL4-3	RT-L100I	CEM + CEM-SS	cytopathic effect / XTT	22
CCc1c(Cc2cc(C)cc(C)c2)n(COCCO)c(=O)[nH]c1=O	IIIB TIBO R82913-resistant (RT K103N)	RT-K103N	CEM	syncytia	71.4
C[C@@H]1CCO[C@H]2Cn3cc(C(=O)NCc4ccc(F)cc4F)c(=O)c(O)c3C(=O)N12	NL4-3	M50I/R263K	CBMC	RT activity	2
CC1=C(C(=O)Nc2ccc(C)c(C(=O)OC(C)C)c2)SCCO1	Nevirapine-resistant (RT V106A)	RT-V106A	CEM	syncytia	>22.2
Cc1cc(C#N)cc(C(=O)c2cc(Cl)ccc2OCC(=O)Nc2ccc(OCCCN3CC=CC3)cc2C)c1	HXB2	RT-K103N	HeLa + HELA CD4+	β-galactosidase	~1
O=C(O[C@@H]1[C@H](OC(=O)c2ccccc2)[C@@H](CO)O[C@H]1n1cnc2c(N(C(=O)c3ccccc3)C(=O)c3ccccc3)ncnc21)c1ccccc1	NL4-3	K103N	HeLaP4	β-galactosidase	1
Cc1occc1C(=S)Nc1ccc(Cl)c(C(=O)OC(C)C)c1	NL4-3	RT-V106A	CEM + CEM-SS	cytopathic effect / XTT	20
CC(C)c1c(Sc2ccccc2)n(COCc2ccccc2)c(=O)[nH]c1=O	IIIB (TIBO 82150) (RT-L100I)	RT-L100I	CEM	syncytia	3.33
N#Cc1cc(Cl)cc(Oc2c(Br)ccc(CC(=O)Nc3ccc(S(N)(=O)=O)cc3Cl)c2F)c1		L100I V106I E138K Y188L	MT-4		>308
CCc1c(Sc2cc(C)cc(C)c2)n(COCCO)c(=S)[nH]c1=O	IIIB	RT-Y181C	CEM	syncytia	137.5
Cc1cc(C#N)cc(C(=O)c2cc(Cl)ccc2OCC(=O)Nc2ccc(S(N)(=O)=O)cc2C)c1	HXB2	RT-G190A	HeLa + HELA CD4+	β-galactosidase	~1
C=CCOc1cc(NC(=S)c2sccc2C)ccc1Cl	CALO(RT-T139I)	RT-T139I	CEM + CEM-SS	cytopathic effect / XTT	2.125
CC(C)=CCOc1cc(NC(=S)c2ccoc2C)ccc1Cl	UC040-R (RT-Y181C)	RT-Y181C	CEM + CEM-SS	cytopathic effect / XTT	111
Cc1cc(S(N)(=O)=O)ccc1NC(=O)COc1ccc(Cl)cc1C(=O)c1cccc(C#N)c1	HXB2	RT-V106I Y181C	HeLa + HELA CD4+	β-galactosidase	~10
CCCc1cc(=O)oc2c3c(c4c(c12)OC(C)(C)CC4)O[C@H](C)[C@@H](C)C3=O		RT-L100I		cytopathic effect / XTT	>68
Cc1cc(N2CCS(=O)CC2)ccc1NC(=O)COc1ccc(Cl)cc1C(=O)c1cccs1	HXB2 (RT-K103N Y181C) Recombinant	RT-K103N Y181C	HeLa + HELA CD4+	β-galactosidase	~100
CC=CCOc1cc(NC(=S)c2ccoc2C)ccc1OC	NL4-3	RT-K101E	CEM + CEM-SS	cytopathic effect / XTT	20
CCOCn1c(Sc2ccccc2)c(CC)c(=O)[nH]c1=S	IIIB	RT-E138K	CEM	syncytia	11.8
CCCCCOC(=O)c1cc(NC(=O)C2=C(C)OCCS2)ccc1Cl	TIBO-resistant (RT L100I)	RT-L100I	CEM	syncytia	5.83
Cc1cc2cn[nH]c2cc1NC(=O)COc1ccc(Cl)cc1C(=O)c1cccc(C#N)c1	HXB2	RT-V106A Y181C	HeLa + HELA CD4+	β-galactosidase	~10
Cc1ccc(C2CC2)c(-c2ccc3c(c2)CCCO3)c1[C@H](OC(C)(C)C)C(=O)O	NL4-3	INSTI-resistant (IN-Y143R)	MT-4	luminescence	1
Cc1c(OCC2CCC2)c2cc(F)ccc2[nH]c1=O	NNRTI-resistant (RT V106A Y181C)	RT-V106A Y181C	HeLa + HeLa-MAGI	β-galactosidase	>3.28
COC(=O)Oc1ccc(NC(=O)C2=C(C)OCCS2)cc1C(=O)OC(C)C	Nevirapine-resistant (RT V106A)	RT-V106A	CEM	syncytia	>14.3
C=CCO/N=C/c1cc(NC(=S)c2ccoc2C)ccc1Cl	NL4-3	RT-L100I	CEM + CEM-SS	cytopathic effect / XTT	186
CC(C)c1c(Sc2ccccc2)n(COCc2ccccc2)c(=S)[nH]c1=O	IIIB TIBO R82913-resistant (RT K103N)	RT-K103N	CEM	syncytia	375
Cc1cc(C#N)cc(C(=O)c2cc(Cl)ccc2OCC(=O)Nc2ccc(S(N)(=O)=O)nc2C)c1	HXB2	RT-K103N	HeLa + HELA CD4+	β-galactosidase	~1
Cc1occc1C(=S)Nc1ccc(Cl)c(/C=N/OC(C)(C)C)c1	NL4-3	RT-L100I	CEM + CEM-SS	cytopathic effect / XTT	27.5
CCC(=O)Oc1ccc(NC(=O)C2=C(C)OCCS2)cc1C(=O)OC(C)C	PYR-resistant (RT Y181C)	RT-Y181C	CEM	syncytia	>2.22
CC(C)=CCOc1cc(NC(=S)c2ccsc2C)ccc1Cl	4XAZT+Y181C (RT D67N K70R Y181C T215Y K219Q)	RT-Y181C	CEM + CEM-SS	p24	17
CCOCn1c(Sc2ccccc2)c(CC)c(=O)[nH]c1=O	IIIB	RT-Y181I	CEM	syncytia	183
O=C1Nc2ccc(Cl)cc2[C@@](/C=C/C2CC2)(C(F)(F)F)N1		RT-P225H			<6
CC1=C(C(=O)Nc2cc(C(=O)OC(C)C)c(F)cc2F)SCCO1	TSAO-resistant (RT E138K)	RT-E138K	CEM	syncytia	>11.8
CC(C)[C@H](NC(=O)OCc1ccccn1)C(=O)N[C@@H](Cc1ccccc1)[C@@H](O)C[C@H](Cc1ccccc1)NC(=O)OCc1cccnc1	NL4-3	PR-L10R M46I	MT-4	p24	1
O=C1Nc2ccc(F)c(F)c2[C@@](C#CC2CC2)(C(F)(F)F)N1		RT-P225H			<13.3
CCCc1c(OC2CCCCC2)c2cc(Cl)ccc2[nH]c1=O	NNRTI-resistant (RT K103N V108I)	RT-K103N V108I	HeLa + HeLa-MAGI	β-galactosidase	>62.5
Cc1cc(NS(=O)(=O)CC2CCCCC2)c(C)c(C(OC(C)(C)C)C(=O)O)c1-c1ccc2c(c1)CCCO2	NL4-3	A128T	MT-4	p24 / luminescence	4

5 of the rows above, restated:

compound	strain	mutations	cell line	read by	result
CCOCn1c(Sc2ccccc2)c(CC)c(=O)[nH]c1=O	IIIB	RT-Y181I	CEM	syncytia	183
CC(C)[C@H](NC(=O)OCc1ccccn1)C(=O)N[C@@H](Cc1ccccc1)[C@@H](O)C[C@H](Cc1ccccc1)NC(=O)OCc1cccnc1	NL4-3	PR-L10R M46I	MT-4	p24	1
COC(=O)Oc1ccc(NC(=O)C2=C(C)OCCS2)cc1C(=O)OC(C)C	Nevirapine-resistant (RT V106A)	RT-V106A	CEM	syncytia	>14.3
Cc1occc1C(=S)Nc1ccc(Cl)c(C(=O)OCC2CC2)c1	NL4-3	RT-L100I	CEM + CEM-SS	cytopathic effect / XTT	22
CCOCn1c(Sc2ccccc2)c(CC)c(=O)[nH]c1=S	IIIB	RT-E138K	CEM	syncytia	11.8